Laboratory results: PubChem BioAssay AID504761 (Drosophila RNAi Screening Center, 2011)

Purpose: 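Insect host genes that dengue virus relies on to spread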 (primary screen)
Cells: D.Mel-2 cells from Drosophila
Knock-down reagent: long dsRNA against Drosophila genes
Challenge: infection with dengue virus type 2; dose and infection time not stated
Detection: 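Per well on two replicate plates, imaging gave the percent of cells positive for viral envelope protein, ranked by infection, and a nuclear count of cells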
Direction: infection score: higher = more virus-infected cells; cell count: higher = more cells in the well
Call rule: 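Very low infection ranking in both replicate wells (chance probability at most 0.065), then a retest showing infection dropped 1.5-fold or more at p below 0.05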
Meaning of the calls: active = confirmed: knock-down lowers infection; inactive = not picked or not confirmed
The screen tested about 22,000 reagents; below is an unselected part of those that have a named target and a result. In the full data, 116 (0.52%) got an active call. 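Calls depend on retest data that are not deposited; infection was ranked per plate without normalising between plates; the unit of the infection score is not given.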 The raw values are shown without normalisation. A number with no mark means an inactive call. The record does not give: the amount of reagent, the time to read-out.

CG14641 [DRSC12227] → infection score, replicate 1: 6.02; infection score, replicate 2: 8.18; cell count, replicate 1: 2855; cell count, replicate 2: 978
CG14641 [DRSC26839] → infection score, replicate 1: 3.76; infection score, replicate 2: 5.69; cell count, replicate 1: 3302; cell count, replicate 2: 3162
CG7382 [DRSC03052] → infection score, replicate 1: 7.93; infection score, replicate 2: 7.69; cell count, replicate 1: 5988; cell count, replicate 2: 6124
CG7382 [DRSC27512] → infection score, replicate 1: 5.23; infection score, replicate 2: 25.1; cell count, replicate 1: 6519; cell count, replicate 2: 6590
Uvrag [DRSC02932] → infection score, replicate 1: 8.72; infection score, replicate 2: 28.7; cell count, replicate 1: 6470; cell count, replicate 2: 5904
Or85c [DRSC16766] → infection score, replicate 1: 6.46; infection score, replicate 2: 8.03; cell count, replicate 1: 6838; cell count, replicate 2: 6262
Send2 [DRSC01906] → infection score, replicate 2: 24; cell count, replicate 1: 628; cell count, replicate 2: 6042
CG14618 [DRSC20631] → infection score, replicate 2: 3.58; cell count, replicate 1: 199; cell count, replicate 2: 6063
slgA [DRSC20586] → infection score, replicate 1: 2.21; infection score, replicate 2: 1.13; cell count, replicate 1: 6692; cell count, replicate 2: 6924
slgA [DRSC27543] → infection score, replicate 1: 14.3; infection score, replicate 2: 10.2; cell count, replicate 1: 5771; cell count, replicate 2: 6972
OtopLa [DRSC18133] → infection score, replicate 1: 3.69; infection score, replicate 2: 2.45; cell count, replicate 1: 6610; cell count, replicate 2: 6413
OtopLa [DRSC23226] → infection score, replicate 1: 1.81; infection score, replicate 2: 7.35; cell count, replicate 1: 6645; cell count, replicate 2: 6610
OtopLa [DRSC29861] → infection score, replicate 1: 13.1; infection score, replicate 2: 10.2; cell count, replicate 1: 3879; cell count, replicate 2: 5950

2 entries from above, reformatted.
{"gene":"CG14641","dsRNA":"DRSC12227","infection score, replicate 1":6.02,"infection score, replicate 2":8.18,"cell count, replicate 1":2855,"cell count, replicate 2":978}
{"gene":"CG14641","dsRNA":"DRSC26839","infection score, replicate 1":3.76,"infection score, replicate 2":5.69,"cell count, replicate 1":3302,"cell count, replicate 2":3162}
